PubChem BioAssay AID504761, Drosophila RNAi Screening Center | 2011
In all, the deposit lists about 22,000 reagents; below is a random part of those with a known target gene and a result. Over the whole deposit, 116 (0.52%) got an active call. 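Calls depend on retest data that are not deposited; infection was ranked per plate without normalising between plates; the unit of the infection score is not given.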 Raw values vary from plate to plate and are shown uncorrected. The numbers tell different reagents against one gene apart. Not stated in the record: the amount of reagent, the time to read-out.

- Screen: 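Fly genes whose silencing reduces dengue virus type 2 infection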 (primary screen)
- Cell system: D.Mel-2 cells from Drosophila
- Knock-down reagent: long dsRNA against Drosophila genes
- Challenge: infection with dengue virus type 2; dose and infection time not stated
- Measured: 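Per well on two replicate plates, imaging gave the percent of cells positive for viral envelope protein, ranked by infection, and a nuclear count of cells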
- Direction: infection score: higher = more virus-infected cells; cell count: higher = more cells in the well
- Call rule: 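Low infection ranks in the two replicates (chance level up to 0.065) followed by a retest with a 1.5-fold or larger significant decrease, p below 0.05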
- Calls: active = confirmed: knock-down lowers infection; inactive = not picked or not confirmed

gene knocked down,reagent,"infection score, replicate 1","infection score, replicate 2","cell count, replicate 1","cell count, replicate 2",outcome
CG17824 (retired record),1,4,3.86,5794,6864,inactive
CG31875,1,5.64,4.65,6701,7014,inactive
CG14606,1,2.86,6.14,6301,6530,inactive
CG31140,1,1.9,1.89,6255,6525,inactive
CG31140,2,2.93,8.27,5940,6592,inactive
CG8939,1,4.91,5.47,6296,7188,inactive
CG9503,1,7.94,10.6,6483,7083,inactive
CG9503,2,8.33,6.18,6689,6570,inactive
Sbf,1,19.3,7.98,5408,5654,inactive
Sbf,2,10.5,3.73,6119,6109,inactive
TwdlL,1,6.75,3.34,6296,6642,inactive
Try29F,1,5.71,6.84,6707,6391,inactive
Try29F,2,4.69,3.49,6458,6616,inactive
CG33771,1,1.15,2.49,7045,6263,inactive
prod,1,11.3,12.3,5122,5509,inactive
prod,2,1.87,2.45,6564,6526,inactive
RpL41,1,1.05,2.87,6643,6346,inactive
CG8765,1,1.61,8.22,6141,6135,inactive
CG8765,2,4.47,2.73,5969,5393,inactive
CG14861,1,15.8,,6188,428,inactive
lt,1,5.27,10.6,6150,6144,inactive
PsGEF (retired record),1,2.71,11.9,6451,5276,inactive
CG8206,1,1.83,1.25,6388,6472,inactive
CG15611,1,17.4,21.9,6000,3062,inactive
CG15611,2,16.7,6.54,5874,6697,inactive
CG7530,1,2.27,2.08,6213,7006,inactive
CG7530,2,9.05,6.24,6887,6246,inactive
Alp1,1,9.87,14.7,6866,6306,inactive
Mal-A3,1,6.64,7.54,6128,6839,inactive
Mal-A3,2,15.2,24.4,3482,3225,inactive
dos,1,2.07,1.32,4628,4544,inactive
dos,2,7.93,11.1,6354,5935,inactive
dos,3,5,32.8,5475,5307,inactive
CG7031,1,0.56,1.27,6421,7001,inactive
CG7031,2,2.28,12.1,6670,6626,inactive

4 entries from above, showing only “infection score, replicate 2”:
CG31875	4.65
CG14606	6.14
CG31140 #1	1.89
CG31140 #2	8.27

The results go on.
gene knocked down,reagent,"infection score, replicate 1","infection score, replicate 2","cell count, replicate 1","cell count, replicate 2",outcome
MCPH1,1,10.1,25.4,4984,5331,inactive
MCPH1,2,11.1,14.4,6662,6822,inactive
MCPH1,3,2.46,13.2,6372,5876,inactive
MCPH1,4,0.36,10.2,281,3160,inactive
CG3473,1,9.7,6.12,3618,2518,inactive
CG32568,1,6.03,10.1,6413,5903,inactive
CG13403,1,4.4,5.17,6382,6516,inactive
CG13403,2,2.87,1.71,6560,6426,inactive
PGRP-SB2,1,3.21,2.9,6175,6349,inactive
bel,1,3.87,1.3,1601,5449,inactive
bel,2,4.28,2.01,6515,6162,inactive
CG15210,1,,0.37,449,534,inactive
CG15210,2,4.46,2.1,6509,6850,inactive
l(2)27Cb (retired record),1,2.6,14.3,5079,5313,inactive
CG8773,1,2.94,5.32,6196,6332,inactive
CG8773,2,15.9,8.02,5772,6124,inactive
CG32267,1,2.42,3.53,6038,5953,inactive
CG32267,2,10.5,11.6,6657,6752,inactive
MFS14,1,3.68,3.47,6363,6965,inactive
MFS14,2,4.42,9.83,5685,5486,inactive
CG14931,1,5.65,7.5,6280,6255,inactive
Pkc53E,1,7.72,9.69,6815,6677,inactive
CG9519,1,3.47,3.89,6401,6400,inactive
CG9519,2,28,4.89,5664,6484,inactive
bwa,1,1.07,3.29,6193,6529,inactive
bwa,2,5.43,4.77,6184,6421,inactive
CG10339,1,3.97,9.1,5743,6266,inactive
CG9795,1,11.6,24.3,6401,5892,inactive
CG9795,2,10.3,4.7,5782,6878,inactive
Naa20B,1,2.54,5.41,5668,1831,inactive
Naa20B,2,9.39,14.3,6539,6809,inactive
Su(var)3-7,1,2.95,13.2,6512,5958,inactive
kibra,1,14.6,24.1,6177,6080,inactive
kibra,2,1.64,6.72,6102,6670,inactive
kibra,3,21.9,,5869,382,inactive
lili,1,5.22,1.35,6359,74,inactive
lili,2,,0.25,377,406,inactive
chk,1,7.18,10.5,6618,6702,inactive
Rpt3,1,1.55,1.86,1544,1824,inactive
Rpt3,2,1.3,1,3703,4422,inactive
